Pooled drug test results. Numbers come from NIAID ChemDB, via PubChem.

Common to all: cytotoxicity tests; cell line: Huh7.5.1; read by: MTT; endpoint: CC50

CCn: concentration that lowers growth or viability of the cells by n%. Lines come from different laboratories, so protocols vary.

smiles	value
CC1=C(/C=C/C(C)=C\C=C\C(C)=C\C(=O)O)C(C)(C)CCC1	>30 µM
COc1ccc(C(=O)Nc2cccc(Cn3nc(C(N)=O)c4ccccc43)c2)cc1	28.42 µM
CC1(C)CCC(C)(C)c2cc(C3(c4ccc(C(=O)O)cc4)OCCO3)ccc21	>30 µM
NC(=O)c1nn(Cc2cccc(NC(=O)c3ccc(F)cc3)c2)c2ccccc12	>10 µM
COc1ccc(-c2ccc3cc(C(=O)O)ccc3c2)cc1C12CC3CC(CC(C3)C1)C2	20 µM
C[C@H]1[C@H](C)CC[C@]2(C(=O)O)CC[C@]3(C)C(=CC[C@@H]4[C@@]5(C)CC[C@H](O)C(C)(C)[C@@H]5CC[C@]43C)[C@H]12	71.1 µg/mL
COc1ccc(C(=O)Nc2cccc(Cn3nc(C(N)=O)c4ccccc43)c2)cc1	>10 µM
Cc1cccc(C(=O)Nc2cccc(Cn3nc(C(N)=O)c4ccccc43)c2)c1	>10 µM
CCC[C@H](NC(=O)[C@@H]1[C@H]2CCC[C@H]2CN1C(=O)[C@@H](NC(=O)[C@@H](NC(=O)c1cnccn1)C1CCCCC1)C(C)(C)C)C(=O)C(=O)NC1CC1	>10 µM
CC1(C)CC[C@]2(C(=O)O)CC[C@]3(C)C(=CC[C@@H]4[C@@]5(C)CC[C@H](O)C(C)(C)[C@@H]5CC[C@]43C)[C@@H]2C1	>200 µg/mL
C=C(c1ccc(C(=O)O)cc1)c1cc2c(cc1C)C(C)(C)CCC2(C)C	>30 µM
COc1c(C)c2c(c(O)c1CC(=O)O)C(=O)OC2	>10 µM
NC(=O)c1nn(Cc2cccc(NC(=O)c3ccc(C(F)(F)F)cc3)c2)c2ccccc12	6.35 µM
CC(C)(C)OC(=O)N[C@@H]1CCCCC/C=C\[C@@H]2C[C@@]2(C(=O)NS(=O)(=O)C2CC2)NC(=O)[C@@H]2C[C@@H](OC(=O)N3Cc4cccc(F)c4C3)CN2C1=O	133.5 µg/mL
NC(=O)c1nn(Cc2cccc(NC(=O)c3ccco3)c2)c2ccccc12	>10 µM
CCCCCOc1cc2c(cc1-c1cc(/C=C/C(=O)O)ccc1O)C(C)(C)CCC2(C)C	>30 µM

For reference, 2 entries again:

{"smiles": "NC(=O)c1nn(Cc2cccc(NC(=O)c3ccc(C(F)(F)F)cc3)c2)c2ccccc12", "value": "6.35 µM"}
{"smiles": "C=C(c1ccc(C(=O)O)cc1)c1cc2c(cc1C)C(C)(C)CCC2(C)C", "value": ">30 µM"}